In US7012086B1, “Treatment of retrovirus induced derangements with niacin compounds” (The Foundation For Innovative Therapies, Inc., priority 2000, dated 2006):
“Also recorded” adds a separate entry of the source.

Test system: HIV infected persons
Assay: Clinical trial of niacin (nicotinamide) in HIV infected persons: plasma amino acids by HPLC, tolerability
Type: in vivo, human
Details: 3 grams/day of oral nicotinamide for 2 months

NC(=O)c1cccnc1 [nicotinamide]
change in plasma amino acid concentrations other than tryptophan (methionine, lysine, cysteine, taurine): no discernible pattern of change; also recorded: no significant change
